Laboratory results taken from PubChem BioAssay AID1376 (SRMLSC, 2008).
Only a part is listed here, and it is no random draw. Entries with a potency or affinity are not part of this list. Calls of active or inactive are those of the source. No stated cut-off is given here; in the data, active means inhibition above about 13%; inconclusive means no clear call, values can overlap the other calls; inactive means below that.

By UniProt entry, the sequences of proteins in these tests, tags left out.
UniProt P9WMN3, whole entry: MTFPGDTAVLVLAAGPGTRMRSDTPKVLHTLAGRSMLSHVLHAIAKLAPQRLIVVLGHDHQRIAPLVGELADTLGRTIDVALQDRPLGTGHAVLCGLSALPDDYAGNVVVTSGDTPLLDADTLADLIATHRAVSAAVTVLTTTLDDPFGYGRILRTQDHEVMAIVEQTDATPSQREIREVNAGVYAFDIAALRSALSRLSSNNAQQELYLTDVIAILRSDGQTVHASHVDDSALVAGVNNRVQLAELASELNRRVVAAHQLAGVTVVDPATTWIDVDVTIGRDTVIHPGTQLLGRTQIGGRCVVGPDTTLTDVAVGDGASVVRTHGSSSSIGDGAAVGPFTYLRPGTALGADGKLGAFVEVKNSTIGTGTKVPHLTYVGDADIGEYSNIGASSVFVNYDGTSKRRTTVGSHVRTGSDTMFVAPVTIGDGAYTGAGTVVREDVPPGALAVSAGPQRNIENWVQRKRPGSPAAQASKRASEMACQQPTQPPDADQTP

The molecules below were run against Bifunctional protein GlmU (Mycobacterium tuberculosis (strain ATCC 25618 / H37Rv)) (UniProt P9WMN3) (assay: inhibition of mycobacterial GlmU enzyme – biochemical, glucosamine-1-phosphate acetyltransferase (AID 1376;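 further: 0% = complete reaction with vehicle and 100% = reaction without substrate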)). Settings: M. tuberculosis GlmU acetyltransferase enzyme assay; active compounds read high;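 tested at 30 µM in the primary screen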.
For `c1ccc(CN2CCC(Nc3ccccc3)CC2)cc1`, the inhibition was inactive: 0.85%.
For `N#Cc1ccc(C(=O)NCC2(N3CCCCC3)CCCCC2)cc1`, the inhibition was inactive: -2.12%.
In the case of `O=C(OC1CN2CCC1CC2)C1c2ccccc2C=Cc2ccccc21` (centres undefined), the inhibition is reported as inactive: -0.19%.
For `COc1ccc(C(=O)NCC2(N3CCOCC3)CCCCC2)cc1OC`, the inhibition was inactive: -1.09%.
For `CCCOc1ccc(C)cc1CN(CCCl)CCCl`, the inhibition was inactive: 1.62%.
In the case of `CCC(CO)(C(=O)OC1CN2CCC1CC2)c1ccccc1` (centres undefined), the inhibition is reported as inactive: -1.42%.
For `COc1cc(OC)cc(C(=O)NCC2(N3CCOCC3)CCCCC2)c1`, the inhibition was inactive: 2.25%.
`CC(C)(C)OC(=O)N1CCC(Nc2ccccc2)CC1` was tested, and the inhibition was inactive: 7.79%.
With `CCOc1ncccc1C(=O)NCC1(N2CCOCC2)CCCCC1` the inhibition was inactive: -0.04%.
`CN(C)c1ccc(C(=O)NCC2(N3CCCCC3)CCCCC2)cc1` was tested, and the inhibition was inactive: -3.28%.
In the case of `CCN1CCC(Nc2cccc(F)c2)CC1`, the inhibition is reported as inactive: 0.07%.
For `Fc1ccccc1NC1CCN(Cc2ccccc2)CC1`, the inhibition was inactive: -5.64%.
In the case of `Cc1ccc(OCC(C)C)c(CN(CCCl)CCCl)c1`, the inhibition is reported as inactive: -4.9%.
With `COc1ccc(NC2CCN(CCc3ccccc3)CC2)c(OC)c1` the inhibition was inactive: -2.48%.
In the case of `CCOc1ccc(C)cc1CN(CCCl)CCCl`, the inhibition is reported as inactive: -1.99%.
For `CCOC(=O)N1CCC(Nc2ccc(OC)cc2)CC1`, the inhibition was inactive: -2.94%.
For `O=C(OC1CN2CCC1CC2)C1c2ccccc2Oc2ccccc21` (centres undefined), the inhibition was inactive: -0.04%.
In the case of `N#CC1(Nc2ccccc2)CCN(Cc2ccccc2)CC1`, the inhibition is reported as inactive: -0.06%.
With `O=C(NCC1(N2CCOCC2)CCCCC1)c1cc2ccccc2o1` the inhibition was inactive: 1.96%.
In the case of `COc1ccc(C(=O)NCC2(N3CCCCC3)CCCCC2)c(OC)c1OC`, the inhibition is reported as inactive: 0.12%.
In the case of `CN1CCC(Nc2cccc(F)c2)CC1`, the inhibition is reported as inactive: -6.22%.
`CN(C)c1cccc(C(=O)NCC2(N3CCCCC3)CCCCC2)c1` was tested, and the inhibition was inactive: -2.28%.
With `COc1ccc(CN(CCCl)CCCl)cc1Cl` the inhibition was inactive: -0.11%.
With `CC(C)c1ccc(NC2CCN(C(=O)OC(C)(C)C)CC2)cc1` the inhibition was inactive: 3.89%.
In the case of `CN1CCN(CCOC(=O)C(O)(c2ccccc2)c2ccccc2)CC1`, the inhibition is reported as inactive: -1.3%.
In the case of `COc1ccc(NC2CCN(C(=O)OC(C)(C)C)CC2)cc1`, the inhibition is reported as inactive: -7.38%.
With `O=C(NCC1(N2CCOCC2)CCCCC1)c1cc(=O)[nH]c2ccccc12` the inhibition was inactive: -1.72%.
`O=C(NCC1(N2CCCCC2)CCCCC1)c1cccc([N+](=O)[O-])c1` was tested, and the inhibition was inactive: 1.56%.
In the case of `N#CC1(Nc2ccccc2)CCN(CCc2ccccc2)CC1`, the inhibition is reported as inactive: -3.79%.
